Reference: PMC8982864 (PLoS Biology, 2022)

B1: CSPG4 domain 1 fragment D1_(401-560) with C-terminal GFP tag (domain or fragment, UniProt Q6UVK1 401-560, looked up)
chain: LAPEAWPAMELPEPCVPEPGLPPVFANFTQLLTISPLVVAEGGTAWLEWRHVQPTLDLMEAELRKSQVLFSVTRGARHGELELDIPGAQARKMFTLLDVVNRKARFIHDGSEDTSDQLVLEVSVTARVPMPSCLRRGQTYLLPIQVNPVNDPPHIIFPHG
modifications: glycan density on Asn427 (predicted N-linked glycosylation)
notes: not shown: GFP, C-terminal, kept

What was measured:
[1] = molecular target: full-length Clostridioides difficile Toxin B (TcdB), C-terminal 6XHis-tag (UniProt P18177); test: ELISA; conditions: parent: est. 100; read off a plot
[2] = molecular target: full-length Clostridioides difficile Toxin B (TcdB), C-terminal 6XHis-tag (Clostridioides difficile (VPI 10463 …, UniProt P18177 1-2366)); test: BLI

Row | Molecule | percent of parent [1] [%] | Kd [2] [nM]
1 | CSPG4 domain 1 fragment D1_(401-560) with C-terminal GFP tag (from UniProt Q6UVK1) D457N | 77 | 
2 | CSPG4 domain 1 fragment D1_(401-560) with C-terminal GFP tag (from UniProt Q6UVK1) R450A | 20 | 
3 | CSPG4 domain 1 fragment D1_(401-560) with C-terminal GFP tag (from UniProt Q6UVK1) E460A | 93 | 
4 | CSPG4 domain 1 fragment D1_(401-560) with C-terminal GFP tag (from UniProt Q6UVK1) P485del; I486del | 18 | 
5 | B1 |  | ~10
